Anti-infective test results gathered from many reports (values: NIAID ChemDB through PubChem).

Shared fields: tests in culture; agent: HIV-1; endpoint: fold resistance

Neighbouring rows are from separate reports. Fold resistance: result on the changed form divided by that on wild type.

O=c1[nH]cnc2c1ncn2[C@H]1CC[C@@H](CO)O1 ; strain: BCF11 ; changes: RT-A98G K103R ; cell line: PBMC ; value: 0.529
CCCN(C)C(=O)Oc1nsnc1-c1c(Cl)ccc(N)c1Cl ; strain: IIIB ; changes: RT-V103A ; cell line: MAGI ; method: MTT ; value: 2.26
Nc1ncnc2c1ncn2CCOCP(=O)(O)O ; strain: L74V(RT-L74V) ; changes: RT-L74V ; cell line: MT-2 ; method: p24 ; value: 1.3
Cc1cn([C@H]2C=C[C@@H](CO)O2)c(=O)[nH]c1=O ; strain: RT-69N 70R 151M 215F ; changes: RT-T69N K70R Q151M T215F ; value: >6
Fc1cccc(F)c1C1SCc2nc3ccccc3n21 ; strain: IIIB HEPT-resistant (RT P236L) ; changes: RT-P236L ; cell line: CEM + CEM-SS ; method: cytopathic effect / XTT ; value: 0.2
Cc1cc(Br)cc(S(=O)(=O)c2cccc(N)c2C#N)c1 ; changes: RT-G190A ; cell line: HeLa + HELA CD4+ ; method: β-galactosidase ; value: 2.73
Nc1nc2c(ncn2[C@H]2CO[C@@H](CO)O2)c(=O)[nH]1 ; strain: RT-69N 70R 151M 215F ; changes: RT-T69N K70R Q151M T215F ; value: 4.7
CC(C)(C)C(=O)c1sc(C(=O)NCCc2ccccc2)c(O)c1O ; changes: INTG-Q148K ; value: 1
Cc1cc(Cl)cc(S(=O)(=O)c2cccc(N)c2C#N)c1 ; changes: RT-V108I Y181C ; cell line: HeLa + HELA CD4+ ; method: β-galactosidase ; value: 2000
Cc1ccnc2c1NC(=O)c1cccnc1N2C1CC1 ; strain: BCF08 ; changes: RT-A98G Y181C ; cell line: PBMC ; value: 100
Nc1nc(=O)n([C@@H]2CS[C@H](CO)O2)cc1F ; strain: RTMC(181 184) (RT D67N K70R Y181C M184V T215F K219Q) ; changes: RT-D67N K70R Y181C M184V T215F K219Q ; cell line: HT4 + HT4 LacZ-1 ; method: plaque count ; value: >5560
Cn1c2ccccc2c2c1cc(C#N)c(=O)n2-c1ccc([N+](=O)[O-])cc1 ; strain: NNRTI-resistant ; changes: RT-Y181C ; cell line: HeLa ; method: luciferase ; value: 1.4
Cc1cc(S(N)(=O)=O)ccc1NC(=O)COc1ccc(Cl)cc1C(=O)c1cc(Cl)cc(C#N)c1 ; strain: NNRTI-resistant (RT V106I P236L) ; changes: RT-V106I P236L ; cell line: MAGI ; method: β-galactosidase ; value: 13.5
Nc1nc(=O)n([C@@H]2CS[C@H](CO)O2)cc1F ; changes: RT-T69N K70R Q151M T215Y ; value: ~5
C/C=C/CSc1cc(NC(=S)c2ccsc2C)ccc1Cl ; strain: Oxathiin carboxanilide-resistant RT L100I ; changes: RT-L100I ; cell line: CEM + CEM-SS ; method: cytopathic effect / XTT ; value: >10
O=c1[nH]cnc2c1ncn2[C@H]1CC[C@@H](CO)O1 ; strain: RTMC(184) (RT D67N K70R M184V T215F K219Q) ; changes: RT-D67N K70R M184V T215F K219Q ; cell line: HT4 + HT4 LacZ-1 ; method: plaque count ; value: 2.4
Cc1cn([C@@H]2O[C@H](CO[Si](C)(C)C(C)(C)C)[C@@]3(OS(=O)(=O)C=C3N)[C@H]2O[Si](C)(C)C(C)(C)C)c(=O)[nH]c1=O ; strain: UC10-resistant (RT Y181C K101E) ; changes: RT-Y181C K101E ; cell line: CEM + CEM-SS ; method: cytopathic effect / XTT ; value: >200
Cc1cn([C@H]2C[C@H](N=[N+]=[N-])[C@@H](CO)O2)c(=O)[nH]c1=O ; strain: NRTI resistant ; changes: RT-M41L E44D D67N T69D V118I L210W T215Y ; cell line: HeLa ; method: luciferase ; value: 389.1
Cc1cn([C@H]2C[C@H](N=[N+]=[N-])[C@@H](CO)O2)c(=O)[nH]c1=O ; strain: NL4-3 ; changes: RT-A98G ; cell line: CEM + CEM-SS ; method: cytopathic effect / XTT ; value: 10
O=C1O[C@H]2[C@@H]3OC(=O)c4cc(O)c(O)c(O)c4-c4c(cc(O)c(O)c4O)C(=O)OC[C@H]2O[C@@H](OC(=O)c2cc(O)c(O)c(O)c2)[C@@H]3OC(=O)c2cc(O)c(O)c3c2[C@@H]2C1=CC(=O)[C@](O)(O3)C2(O)O ; strain: NNRTI-resistant (RT G190A) ARP1014 ; changes: RT-G190A ; cell line: MAGI ; value: 1.49
COc1cc(C(F)(F)F)cc(S(=O)(=O)c2cccc(N)c2C#N)c1 ; changes: RT-K103N Y181C ; cell line: HeLa + HELA CD4+ ; method: β-galactosidase ; value: >3570
O=C(NCc1ccc(F)cc1)c1nc(N2CCCCS2(=O)=O)c2cccnc2c1O ; changes: IN-T66I S153Y N155S ; value: 286
Cc1cn([C@H]2C[C@H](N=[N+]=[N-])[C@@H](CO)O2)c(=O)[nH]c1=O ; strain: BCF02 ; changes: RT-A98G V106I Y181C ; cell line: PBMC ; value: 1
CCc1c(Sc2ccccn2)n(COCc2ccccc2)c(=O)[nH]c1=O ; strain: NL4-3 ; changes: RT-L74V ; cell line: CEM + CEM-SS ; method: cytopathic effect / XTT ; value: 1
Nc1ncnc2c1ncn2[C@@H]1O[C@H](CO)C[C@@H]1F ; strain: RT A62V/V75I/F77L/F116Y/Q151M ; changes: RT-A62V V75I F77L F116Y Q151M ; cell line: MT-2 ; method: p24 ; value: 2.4
Nc1nc2c(ncn2[C@H]2CO[C@@H](CO)O2)c(=O)[nH]1 ; changes: RT-S68G Q151M T215Y ; value: ~4
Cc1cn([C@H]2C=C[C@@H](CO)O2)c(=O)[nH]c1=O ; strain: Recombinant ; changes: RT-M41L A62V S68N G112S V118I M184V ; cell line: HeLa ; method: luciferase ; value: 0.4
O=c1[nH]cnc2c1ncn2[C@H]1CC[C@@H](CO)O1 ; strain: JF4A (RT-T69D) ; changes: RT-T69D ; cell line: HELA-CD4+ ; method: plaque count ; value: 1.13
Cc1cn([C@H]2C[C@H](N=[N+]=[N-])[C@@H](CO)O2)c(=O)[nH]c1=O ; strain: RT P119S L214F ; changes: RT-P119S L214F ; cell line: MT-2 ; method: p24 ; value: 1.4
Fc1cccc(F)c1C1SCc2nc3ccccc3n21 ; strain: UC10-resistant (RT Y181C K101E) ; changes: RT-Y181C K101E ; cell line: CEM + CEM-SS ; method: cytopathic effect / XTT ; value: >20.3
Cc1cc(O)cc(S(=O)(=O)c2cccc(N)c2C#N)c1 ; changes: RT-K103N P225H ; cell line: HeLa + HELA CD4+ ; method: β-galactosidase ; value: 87.3
Cc1ccnc2c1NC(=O)c1cccnc1N2C1CC1 ; strain: NL4-3 (RT M184V) ; changes: RT-M184V ; cell line: CEM + CEM-SS ; method: cytopathic effect / XTT ; value: 5
O=c1[nH]cnc2c1ncn2[C@H]1CC[C@@H](CO)O1 ; strain: P119S(RT-P119S) ; changes: RT-P119S ; cell line: MT-2 ; method: p24 ; value: 0.9
CC(C)Oc1ccc(Cc2ccccc2)cc1C(=O)CC(=O)C(=O)O ; changes: INTG-T66I S153Y ; value: 9

4 of the rows above, restated:

Nc1ncnc2c1ncn2CCOCP(=O)(O)O ; strain: L74V(RT-L74V) ; changes: RT-L74V ; cell line: MT-2 ; method: p24 ; value: 1.3
Cc1ccnc2c1NC(=O)c1cccnc1N2C1CC1 ; strain: BCF08 ; changes: RT-A98G Y181C ; cell line: PBMC ; value: 100
CCCN(C)C(=O)Oc1nsnc1-c1c(Cl)ccc(N)c1Cl ; strain: IIIB ; changes: RT-V103A ; cell line: MAGI ; method: MTT ; value: 2.26
Cc1cn([C@H]2C=C[C@@H](CO)O2)c(=O)[nH]c1=O ; strain: RT-69N 70R 151M 215F ; changes: RT-T69N K70R Q151M T215F ; value: >6